Data on one molecule can be found in patent US20210330736A1 (UNIVERSITEIT VAN AMSTERDAM, priority 2018, published 2021).

For this experiment, the target named is mouse GUCY2C (endogenous, in mouse striatal slices) (mouse, UniProt Q3UWA6). In words: cell-based or functional assay.

On to NDCCELCCNVACTGCL [peptide 4], for which the “P-S40 TH/TTH, fold change (average), mouse striatal slices, 10 µM, 1 h (WES)” value was 1 fold change (average).
